A mixed list of measured activities; the numbers were collected in NIAID ChemDB.

Shared fields: growth or infection tests; species: Pneumocystis carinii; measure: EC50

Blank or dashed fields: not listed here. Conditions beyond the fields shown may differ between rows. ECn: concentration that inhibits the pathogen or its effect by n%.

SMILES	conditions	cell line	value
CC(C)(C)[C@]1(O)C[C@@H]2OC(=O)C[C@@]23C(=O)O[C@@H]2OC(=O)[C@H](O)[C@]213	-	-	50 µg/mL
CCC[C@@H]1C[C@@H](C(=O)N[C@@H]([C@H]2O[C@H](SC)[C@H](O)[C@@H](O)[C@H]2O)[C@H](C)Cl)N(C)C1	10 d	-	>5 µg/mL
CN(Cc1cnc2nc(N)nc(N)c2n1)c1c(Cl)cc(C(=O)N[C@@H](CCC(=O)O)C(=O)O)cc1Cl	-	-	0.72 µM
Nc1ccc(S(=O)(=O)Nc2cc(Cl)cc(Cl)c2)cc1	5 d	-	<100 µM
CN(Cc1cnc2nc(N)nc(N)c2n1)c1ccc(C(=O)N[C@H](CCC(=O)O)C(=O)O)cc1I	-	-	15.7 µM
CN1CCN(C)C1c1ccc(N2CCN(c3ccc(C4N(C)CCN4C)cc3)CC2)cc1	-	A549	>100 µg/mL
Nc1nc(NC2CC2)c2ncn([C@H]3C=C[C@@H](CO)C3)c2n1	-	-	>100 µg/mL
C(=N\Nc1ccccc1)/c1ccc(N2CCN(c3ccc(/C=N/Nc4ccccc4)cc3)CC2)cc1	-	A549	>100 µg/mL
C[C@@H]1CC[C@H]2[C@@H](C)C(=O)O[C@@H]3OC4(C)CC[C@@H]1[C@]32OO4	-	-	0.5 µM
Nc1ccn([C@@H]2CS[C@H](CO)O2)c(=O)n1	-	-	>100 µg/mL
CC(=O)c1ccc(N2CCN(c3ccc(C(C)=O)cc3)CC2)cc1	-	A549	>100 µg/mL
CCc1nc(N)nc(N)c1-c1ccc(Cl)c(N=NN(C)C)c1	-	-	5.5 µM
O=C(O)CNCP(=O)(O)O	20 h	-	0.052 µM
N=C(N)c1ccc(OC(=O)c2ccc(C(=O)Oc3ccc(C(=N)N)cc3)cc2)cc1	-	A549	6.38 µg/mL
Nc1ccc(S(=O)(=O)Nc2cc(I)cc(I)c2)cc1	5 d	-	<100 µM
Cc1c(CNc2ccc(Cl)c(C(=O)NC(CC(=O)O)C(=O)O)c2)ccc2nc(N)nc(N)c12	-	-	1.4 µM
N=C(N)c1ccc(OCCCCCOc2ccc(C(=N)N)cc2)cc1	-	-	0.29 µg/mL
CN(Cc1cnc2nc(N)nc(N)c2n1)c1c(Cl)cc(C(=O)N[C@@H](CCC(=O)O)C(=O)O)cc1Br	-	-	8.1 µM
C(=C1/CCCN(c2ccc(C3=NCCN3)cc2)C1)/c1ccc(C2=NCCN2)cc1	-	A549	1.25 µg/mL
CN(Cc1cnc2nc(N)nc(N)c2n1)c1ccc(C(=O)N[C@@H](CCC(=O)O)C(=O)O)c2ccccc12	-	-	0.1 µM
N=C(N)c1ccc(N2CCCN(c3ccc(C(=N)N)cc3)CC2)cc1	-	A549	0.835 µg/mL
Nc1nc(N)c2nc(CN(CCO)c3ccc(C(=O)NC(CCC(=O)O)C(=O)O)cc3)cnc2n1	-	-	67 µM
CC(C)Nc1cccnc1N1CCN(C(=O)c2cc3cc(NS(C)(=O)=O)ccc3[nH]2)CC1	-	-	>100 µg/mL

Again, the opening 2 rows:

| SMILES | conditions | cell line | value |
|---|---|---|---|
| CC(C)(C)[C@]1(O)C[C@@H]2OC(=O)C[C@@]23C(=O)O[C@@H]2OC(=O)[C@H](O)[C@]213 | - | - | 50 µg/mL |
| CCC[C@@H]1C[C@@H](C(=O)N[C@@H]([C@H]2O[C@H](SC)[C@H](O)[C@@H](O)[C@H]2O)[C@H](C)Cl)N(C)C1 | 10 d | - | >5 µg/mL |